The test system of assay [1] is recombinant HIV-1 46I/84A. Briefly: Cross-Resistance Profile Assay.
Assay [2] relates to recombinant HIV-1 48V/54V/71V/82S. Briefly: Cross-Resistance Profile Assay. It counts as cell-based.
Assay [3] has as its system recombinant HIV-1 54V/71V/82S. The assay is described as follows: Cross-Resistance Profile Assay.
Assay [4] concerns recombinant HIV-1 10I/48V/54V/82A. The assay is described as follows: Cross-Resistance Profile Assay.
For assay [5], the system named is recombinant HIV-1 8K/46I/90M. The assay is described as follows: Cross-Resistance Profile Assay. It counts as cell-based.
Assay [6] relates to recombinant HIV-1 10F/46I/71V/82T/90M. The assay is described as follows: Cross-Resistance Profile Assay. It counts as cell-based.
Assay [7] relates to recombinant HIV-1 46I/47V/50V. The assay is described as follows: Cross-Resistance Profile Assay. It counts as cell-based.
Assay [8] deals with recombinant HIV-1 30N/50S/82I/88D. The assay is described as follows: Cross-Resistance Profile Assay. It counts as cell-based.
In assay [9] the test system is recombinant HIV-1 10R/46I/82T/84V. Briefly: Cross-Resistance Profile Assay.
Assay [10] has as its system mutant HIV-1 with I84V/L90M mutations. It counts as cell-based. As to conditions: fold difference in EC50 vs wild type, class symbols.

In the case of `CCCCOC(=O)C(C)NP(=O)(COc1ccc(CC(NC(=O)OC2COC3OCCC23)C(O)CN(CC(C)C)S(=O)(=O)c2ccc(OC)cc2)cc1)NC(C)C(=O)OCCCC` (centres unmarked) [GS-16503], the “Fold Change in EC50 Relative to WT HIV-1” value in assay [1] was determined as 1 fold; in assay [2], 0.5 fold; in [3] it was 0.9 fold; in [4] it was 0.4 fold; in assay [5] it was 1.2 fold; in assay [6], 1 fold. Besides, the “Fold Change in EC50 Relative to WT HIV-1” value in [7] was 3.3 fold; in assay [8] it was 0.6 fold; in assay [9] it was 1 fold.

On to `CCCCOC(=O)C(C)NP(=O)(COc1ccc(CC(NC(=O)OC2COC3OCCC23)C(O)CN(CC(C)C)S(=O)(=O)c2ccc(OC)cc2)cc1)NC(C)C(=O)OCCCC` (centres unmarked) [drawing 606 R1=Ala-Bu R2=Ala-Bu], for which the I84V/L90M fold change entry in assay [10] is reported as “− (≦3)”.

In the case of `CCOC(=O)C(C)NP(=O)(COc1ccc(CC(NC(=O)OC2COC3OCCC23)C(O)CN(CC(C)C)S(=O)(=O)c2ccc(OC)cc2)cc1)Oc1ccccc1` (centres unmarked) [drawing 608 R1=OPh R2=Ala-Et], the I84V/L90M fold change result in assay [10] is “− (≦3)”.

These data come from patent US20070190523A1 (priority 2002, published 2007).
